Anti-infective test results gathered from many reports (values: NIAID ChemDB through PubChem).

Shared fields: toxicity to cultured cells; endpoint: CC50

An empty or dashed field is not shown. Conditions beyond the fields shown may differ between rows. CCn: concentration that lowers growth or viability of the cells by n%.

SMILES,method,cells,result
CCOC(=O)c1c(NC(=O)c2c(F)c(F)c(F)c(F)c2F)sc2c1CCN(CC)C2,,THP-1 human monocytic cells,6.2 µM
CCc1cn([C@H]2C[C@H](O)[C@@H](CO)O2)c(=O)[nH]c1=O,cell count,P3HR-1,578 µM
NC1=NC2C(C=CN2CC(CO)CCO)C(=O)N1,,CD4+ T lymphocytes,230 µM
O=C(C(=O)N1CCN(C(=O)c2ccccc2)CC1)c1c[nH]c2c(N3CCOCC3)ncc(F)c12,trypan blue,HeLa,>100 µM
Nc1nc2c(ncn2CCC(CO)CO)c(=O)[nH]1,cell count,OMK,308 µM
COc1cnc(-c2ccn[nH]2)c2[nH]cc(C(=O)C(=O)N3CCN(C(=O)c4ccccc4)CC3)c12,trypan blue,HeLa,≤100 µM
CS[C@@]12C[C@@H]3C(=O)C=C[C@H](O)[C@H]3N1C(=O)[C@]1(SC)CC3=CC=C[C@H](O)[C@H]3N1C2=O,luminescence,293T,>100 µM
CCCCSc1n[nH]c(-c2ccco2)n1,,Panc-1,>100 µg/mL
CS[C@@]12CC3C(=O)CC[C@H](O)[C@H]3N1C(=O)[C@@]13C[C@@H]4[C@@H]([C@@H](O)[C@@H](C[C@@H]4O)S1)N3C2=O,luminescence,293T,>100 µM
Nc1c(-c2nc3ccccc3[nH]2)cc(-c2ccccc2)n1-c1cccc(Br)c1,sulforhodamine,MCF-7 breast cancer cells,2.12 µg/mL
COc1cnc(-n2cncn2)c2[nH]cc(C(=O)C(=O)N3CCN(C(=O)c4ccccc4)[C@H](C)C3)c12,trypan blue,HeLa,>100 µM
CCOc1nc(N)nc2c1ncn2/C=C1/C[C@@H]1CO,ATP,Akata,>20 µM
CCCCSc1n[nH]c(-c2cccc([N+](=O)[O-])c2C)n1,,Panc-1,>100 µg/mL
O=c1cc(NC2CCN(Cc3ccccc3)CC2)c2cccnc2n1O,,HeLa,<100 µM
CO[C@@H]1[C@H](O)[C@@H](CO)O[C@H]1n1ccc(N)nc1=O,,HBI10A,>100 µM
O=c1nc2c(nc3ccccc13)Nc1ccccc1N2,sulforhodamine,MCF-7 breast cancer cells,1.39 µg/mL
Cc1ccc(CNc2cc(=O)n(O)c3ncccc23)cc1,,HeLa,<100 µM
Nc1nc2c(sc(=O)n2C/C=C\CO)c(=O)[nH]1,,KB cells (growing),>100 µM
NC(=O)c1ncc(F)c2c(C(=O)C(=O)N3CCN(C(=O)c4ccccc4)CC3)c[nH]c12,trypan blue,HeLa,>100 µM
O=c1[nH]c(=O)n([C@H]2CO[C@@H](CO)O2)cc1/C=C/Br,,HEL 299,>200 µM
CCOC(=O)Cn1c(CN2c3ccccc3Nc3nc(=O)c4ccccc4nc32)nc2ccccc21,sulforhodamine,MCF-7 breast cancer cells,0.934 µg/mL
CCCCOc1nc(N)nc2c1ncn2/C=C1/C[C@@H]1CO,ATP,Akata,>20 µM
Clc1ncnc2c1ncn2C1C[C@H]2C[C@@H]1c1cscc12,,Huh,>16 µM
O=c1[nH]c(=O)n([C@H]2C[C@H](O)[C@@H](CO)O2)cc1/C=C/Br,,CD4+ T lymphocytes,90 µM
CCOC(=O)C1=C(CN2CCOCC2)NC(C2=NC=CC2)=NC1c1ccc(F)cc1Br,MTT,Primary human hepatocytes,115 µM
Nc1ncnc2c1ncn2[C@@H]1O[C@H](CO)[C@@H](O)[C@H]1F,MTT,CEF,>100 µM
COc1cnc(-c2ccco2)c2[nH]cc(C(=O)C(=O)N3CCN(C(=O)c4ccccc4)CC3)c12,trypan blue,HeLa,>100 µM
CC(C)CSc1nc(N)nc2c1ncn2/C=C1/C[C@@H]1CO,ATP,Akata,>20 µM
CC1(C)CC[C@@]2(C(=O)NCc3cn(CC(CO)(Cn4cc(CNC(=O)[C@]56CCC(C)(C)CC5C5=CCC7[C@@]8(C)CC[C@H](O)C(C)(C)C8CC[C@@]7(C)[C@]5(C)C[C@H]6O)nn4)[N+]4=N[N+](CNC(=O)[C@]56CCC(C)(C)CC5C5=CCC7[C@@]8(C)CC[C@H](O)C(C)(C)C8CC[C@@]7(C)[C@]5(C)C[C@H]6O)=CC4)nn3)C(C1)C1=CCC3[C@@]4(C)CC[C@H](O)C(C)(C)C4CC[C@@]3(C)[C@]1(C)C[C@H]2O,resazurin,293T,>100 µM
COc1nc2c(nc(N)n2[C@@H]2O[C@H](CO)[C@@H](O)[C@H]2F)c(=O)[nH]1,MTT,CEF,21 µM
Nc1nc2ccccc2[nH]c1=O,sulforhodamine,MCF-7 breast cancer cells,1.28 µM
Nc1c(Cl)ncnc1NC1C[C@H]2C[C@@H]1c1ccsc12,,Huh,101 µM
CNC(=O)c1ncc(F)c2c(C(=O)C(=O)N3CCN(C(=O)c4ccccc4)CC3)c[nH]c12,trypan blue,HeLa,>100 µM
Cc1cc(Cn2cc(CNC(=O)[C@]34CCC(C)(C)CC3C3=CCC5[C@@]6(C)CC[C@H](O)C(C)(C)C6CC[C@@]5(C)[C@]3(C)C[C@H]4O)nn2)c(C)cc1Cn1cc(CNC(=O)[C@]23CCC(C)(C)CC2C2=CCC4[C@@]5(C)CC[C@H](O)C(C)(C)C5CC[C@@]4(C)[C@]2(C)C[C@H]3O)nn1,resazurin,293T,>100 µM
O=c1cc(C2=Cc3ccccc3CC2)c2cccnc2n1O,,HeLa,<100 µM
CS[C@@]1(Cc2ccccc2)NC(=O)[C@@](Cc2ccccc2O)(SC)NC1=O,luminescence,293T,>100 µM
Clc1ncnc2c1ncn2C1C[C@H]2C[C@@H]1c1ccsc12,,Huh,28 µM
Nc1nc2c(=O)[nH]c(Cl)nc2n1[C@@H]1O[C@H](CO)[C@@H](O)[C@H]1F,MTT,CEF,26 µM
O=c1[nH]c(=O)n([C@@H]2CO[C@H](CO)O2)cc1/C=C/Br,,HEL 299,>200 µM
CCN1CCc2c(sc(NC(=O)c3c(F)c(F)c(F)c(F)c3F)c2C(N)=O)C1,,THP-1 human monocytic cells,8.6 µM
O=c1cc(N2CCc3ccccc3C2)c2cccnc2n1O,,HeLa,<100 µM
Nc1c(-c2nc3ccccc3[nH]2)cc(-c2ccccc2)n1-c1ccc(Br)cc1,resazurin,A549 lung cancer cells,13.5 µM
C[C@@H]1CN(C(=O)C(=O)c2c[nH]c3c(-c4ncco4)ccnc23)CCN1C(=O)c1ccccc1,trypan blue,HeLa,>100 µM
C=C(C)C1CC[C@]2(C(=O)O)CC[C@]3(C)C(CCC4[C@@]5(C)C[C@@H](OC(C)=O)[C@H](O)C(C)(C)C5CC[C@]43C)C12,XTT,1A2,15.9 µg/mL
CC(C)Sc1nc(N)nc2c1ncn2/C=C1/C[C@@H]1CO,ATP,Akata,>20 µM
Nc1ccn([C@@H]2O[C@H](CO)[C@@H](O)[C@H]2F)c(=O)n1,MTT,CEF,>100 µM
C=CCSc1n[nH]c(-c2ccc([N+](=O)[O-])c(C)c2)n1,,THP-1,>100 µg/mL
Nc1c(-c2nc3ccccc3[nH]2)cc(-c2ccccc2)n1Cc1nc2ccccc2[nH]1,sulforhodamine,MCF-7 breast cancer cells,0.972 µg/mL
CCCSc1nc(N)nc2c1ncn2/C=C1/C[C@@H]1CO,ATP,Akata,>20 µM
Nc1nc2c(ncn2COC(CO)CO)c(=O)[nH]1,,CD4+ T lymphocytes,61 µM
C=C(C)[C@@H]1CC[C@]2(C(=O)O)CC[C@]3(C)[C@H](CC[C@@H]4[C@@]5(C)CC[C@H](O)C(C)(C)[C@@H]5CC[C@]43C)[C@@H]12,XTT,1A2,27.2 µg/mL
CS[C@@]1(Cc2ccccc2O)NC(=O)/C(=C/c2ccccc2)NC1=O,luminescence,293T,>100 µM
C#CCSc1n[nH]c(-c2ccco2)n1,,Panc-1,>100 µg/mL
CC(=O)N1c2ccccc2NC2=C(C(=O)CC(C)(C)C2)C1c1ccc(Cl)cc1Cl,,MT4-LTR-LUC,>32 µM
CCCOc1nc(N)nc2c1ncn2/C=C1/C[C@@H]1CO,ATP,Akata,>20 µM
O=c1[nH]c(=O)n([C@H]2C[C@H](O)[C@@H](CO)O2)cc1/C=C/Br,cell count,P3HR-1,495 µM
Clc1ncnc2c1ncn2C1C[C@H]2C[C@@H]1[C@@H]1CSC[C@H]21,,Huh,20 µM
Nc1nc(=O)n([C@@H]2O[C@H](CO)[C@@H](O)[C@@H]2F)cc1I,cell count,RF,≥383 µM
Cc1cn([C@H]2C[C@H](F)C(COC(=O)CCC(=O)OC[C@H]3O[C@@H](O)[C@H](OS(=O)(=O)[O-])[C@H](OS(=O)(=O)[O-])[C@@H]3O[C@@H]3CO[C@@H](O[C@@H]4O[C@H](CO)[C@@H](O[C@@H]5O[C@H](COS(=O)(=O)[O-])C[C@H](O)[C@H]5OS(=O)(=O)[O-])[C@H](O)[C@H]4O)[C@H](O)[C@H]3O)O2)c(=O)[nH]c1=O,MTT,P4R5,>100 µg/mL
CC(C1CCN(c2cc(=O)n(O)c3ncccc23)CC1)N1CCOCC1,,HeLa,<100 µM
N#Cc1cn(COC(CO)CO)c2nc(N)[nH]c(=O)c12,,ALEX,~400 µM
Cc1cc(-c2ccc(N=Nc3ccc4c(S(=O)(=O)O)cc(S(=O)(=O)O)c(N)c4c3O)c(C)c2)ccc1N=Nc1ccc2c(S(=O)(=O)O)cc(S(=O)(=O)O)c(N)c2c1O,,ATH8,>50 µg/mL
COc1cnc(-c2nn[nH]n2)c2[nH]cc(C(=O)C(=O)N3CCN(C(=O)c4ccccc4)CC3)c12,trypan blue,HeLa,>100 µM
C/C(=N\NC(=O)c1ccccc1)c1cccc(/C(C)=N/NC(=O)c2ccccc2)n1,MTT,HCT116,>100 µM

The first 7 rows once more:

{"SMILES": "CCOC(=O)c1c(NC(=O)c2c(F)c(F)c(F)c(F)c2F)sc2c1CCN(CC)C2", "cells": "THP-1 human monocytic cells", "result": "6.2 µM"}
{"SMILES": "CCc1cn([C@H]2C[C@H](O)[C@@H](CO)O2)c(=O)[nH]c1=O", "method": "cell count", "cells": "P3HR-1", "result": "578 µM"}
{"SMILES": "NC1=NC2C(C=CN2CC(CO)CCO)C(=O)N1", "cells": "CD4+ T lymphocytes", "result": "230 µM"}
{"SMILES": "O=C(C(=O)N1CCN(C(=O)c2ccccc2)CC1)c1c[nH]c2c(N3CCOCC3)ncc(F)c12", "method": "trypan blue", "cells": "HeLa", "result": ">100 µM"}
{"SMILES": "Nc1nc2c(ncn2CCC(CO)CO)c(=O)[nH]1", "method": "cell count", "cells": "OMK", "result": "308 µM"}
{"SMILES": "COc1cnc(-c2ccn[nH]2)c2[nH]cc(C(=O)C(=O)N3CCN(C(=O)c4ccccc4)CC3)c12", "method": "trypan blue", "cells": "HeLa", "result": "≤100 µM"}
{"SMILES": "CS[C@@]12C[C@@H]3C(=O)C=C[C@H](O)[C@H]3N1C(=O)[C@]1(SC)CC3=CC=C[C@H](O)[C@H]3N1C2=O", "method": "luminescence", "cells": "293T", "result": ">100 µM"}